Results from article PMC10622425, “The role of an amphiphilic helix and transmembrane region in the efficient acylation of the M2 protein from influenza virus” (2023).

Experiments:
[1] = target: M2-AH-5 mutant (Lys49, Arg53, Lys60, Arg61 replaced by Phe) (Influenza A virus A/WSN/33 (H1N1)); experiment: co-IP
[2] = target: M2-AH-4 mutant (three lysines instead of Phe48, Ile51, Phe55) (Influenza A virus A/WSN/33 (H1N1)); experiment: co-IP

Question: What does the source list for “human DHHC20 fused at its C-terminus to a myc-tag (from UniProt Q5W0Z9 5-299) (enzyme)”?
Answer: co-precipitated DHHC20-myc per M2, percent of M2-wt [1]: 20%; co-precipitated DHHC20-myc per M2, fold of M2-wt [2]: 2 fold
